Patent US20230331823A1 (HENRY M JACKSON FOUNDATION FOR THE ADVANCEMENT OF MILITARY …, published 2023)

B1: BiShAb21a (ShAb02 VNAR-25aa-ShAb01 VNAR-3c-Fc) (bispecific antibody)
chain: ARVDQTPQTITKETGESLTINCVLRDSNCALASTDWYRKKSGSTNEESISKGGRYVETVNSGSKSFSLRINDLTVEDSGTYRCNAWDSWETRQLKCDYDVYGGGTVVTVNGGGGSGGGGSGGGGSGGGGSGGGGSARVDQTPRSVTKETGESLTINCVLRDSNCALSSTHWYRKKSGSTNEERILQGRRYVETVNSGSKSFSLRINDLRVEDSGTYRCKVYWGNSWQDKFCPGLGSYEYGDGTAVTVNSREPKSCDKGLEVLFQ[no letters for human IgG1 Fc and a few adjoining residues]
B2: ShAb01H02K (ShAb01Hole-02Knob) (bispecific antibody)
chain 1: ARVDQTPRSVTKETGESLTINCVLRDSNCALSSTHWYRKKSGSTNEERILQGRRYVETVNSGSKSFSLRINDLRVEDSGTYRCKVYWGNSWQDKFCPGLGSYEYGDGTAVTVNSREPKSCDKGLEVLFQGP[no letters for human IgG1 Fc with Y407T (EU numbers)]
chain 2: ARVDQTPQTITKETGESLTINCVLRDSNCALASTDWYRKKSGSTNEESISKGGRYVETVNSGSKSFSLRINDLTVEDSGTYRCNAWDSWETRQLKCDYDVYGGGTVVTVNSREPKSCDKGLEVLFQGP[no letters for human IgG1 Fc with T366Y (EU numbers)]

Experiments:
Assay in all cases: BLI, ShAb-Fc on AHC probe, RBD analyte, 1:1 fit
[1] = target: T1, SARS-CoV-2 RBD K417N (SARS-CoV-2)
T1 construct: range […]

[2] = target: T2, SARS-CoV-2 RBD E484K (SARS-CoV-2)
T2 construct: range […]

[3] = target: T3, SARS-CoV-2 RBD N501Y (SARS-CoV-2)
T3 construct: range […]

[4] = target: T4, SARS-CoV-2 RBD L452R (SARS-CoV-2)
T4 construct: range […]

| Binder | Kd [1] | koff [1] | kon [1] | Kd [2] | koff [2] | kon [2] | Kd [3] | koff [3] | kon [3] | Kd [4] | koff [4] | kon [4] |
| --- | --- | --- | --- | --- | --- | --- | --- | --- | --- | --- | --- | --- |
| B1 | 1.67 nM | 0.000352 s⁻¹ | 211000 M⁻¹ s⁻¹ | 1.98 nM | 0.000415 s⁻¹ | 210000 M⁻¹ s⁻¹ | 1.79 nM | 0.00037 s⁻¹ | 207000 M⁻¹ s⁻¹ | 1.23 nM | 0.000133 s⁻¹ | 109000 M⁻¹ s⁻¹ |
| B2 | 1.29 nM | 0.000457 s⁻¹ | 353000 M⁻¹ s⁻¹ | 1.65 nM | 0.000511 s⁻¹ | 310000 M⁻¹ s⁻¹ | 1.51 nM | 0.000513 s⁻¹ | 341000 M⁻¹ s⁻¹ | – | – | 156000 M⁻¹ s⁻¹ |
